Data taken from patent US10716769B2 (GUANGZHOU JTREAT BIOSCI. LTD., priority 2015, dated 2020).

Assays:
[1] = tested on: HSV-I, VR733 strain; assay: Inhibition of cytopathic effects of Vero cells caused by herpes virus type I; assay type: cell-based; conditions: SI = TC50/IC50
Description: (§1) Vero cells (kidney cells of African green monkey) are used as viral hosts to test the inhibition degree of the samples to the cytopathic effects of Vero cells caused by herpes virus type I and type II.
(§2) Vero cells (kidney cells of African green monkey) are used as viral hosts to test the inhibition degree of the samples to cytopathic effects of the Vero cell caused by herpes virus type I and type II.
(§3) 1. Virus strains: HSV-I, VR733 strain, and HSV-II, SAV strain, which both are provided by ATCC.
(§4) 2. Sample treatment: the sample is dissolved in DMSO at an appropriate concentration before use, and diluted with the culture medium 3 times at a total of 8 dilutions for test.
(§5) 3. Positive control drug: acyclovir (ACV) produced by the Hubei Ke Yi pharmaceutical factory.

[2] = tested on: HSV-II, SAV strain; assay: Inhibition of cytopathic effects of Vero cells caused by herpes virus type II; assay type: cell-based; conditions: SI = TC50/IC50
Description: as §1, §2, §3, §4, §5

Row | Compound | SI Against HSV-1 [1] | SI Against HSV-II [2]
1 | O=C(c1ccccc1)c1ccc(O)c(O)c1O [2,3,4-trihydroxybenzophenone] | 2.66 | 1.86
2 | O=C(c1ccc(O)c(O)c1O)c1ccc(O)c(O)c1O [2,3,4,2′,3′,4′-hexahydroxybenzophenone] | 1.26 | 1.14
3 | O=C(c1ccc(O)cc1O)c1ccc(O)cc1O [2,4,2′,4′-tetrahydroxybenzophenone] | 2.22 | 2.11
4 | O=C(c1ccccc1O)c1ccccc1O [2,2′-dihydroxybenzophenone] | 2.18 | 2.23
